Experimental data: publication PMC4081560 (PLoS ONE, 2014)

Settings: mouse

CCC(CC)[C@H](NC(C)=O)[C@@H]1[C@H](O)[C@@H](C(=O)O)C[C@H]1N=C(N)N [Peramivir]
in vivo toxicity: no in vivo toxicity was observed

NC(=O)c1nc(F)c[nH]c1=O [Favipiravir, 6-fluoro-3-hydroxy-2-pyrazinecarboxamide]
in vivo toxicity: no in vivo toxicity was observed
